Compound potency records, mixed from different reports. Data source: NIAID ChemDB in PubChem.

All rows: growth or infection tests; species: Human cytomegalovirus

ECn: concentration that inhibits the pathogen or its effect by n%. An empty or dashed field is not shown. Lines come from different laboratories, so protocols vary.

| structure | cells | strain or isolate | read-out | changes | method | result |
|---|---|---|---|---|---|---|
| O=C(Nc1ccc(NC(=S)Nc2cc3ccccc3o2)cc1)c1nccc2ccccc12 | HFF |  | EC50 |  | virus yield | >10 µg/mL |
| O=C(NCc1ccc(Cl)cc1)c1c[nH]c2c(F)cccc2c1=O |  | 9 isolates | EC50 |  | plaque count | 12 µM |
| O=C1c2ccccc2C(=O)N1[C@@H]1CC2CC3CC(C2)C1C3 | HEL | AD169 | EC50 |  | plaque count | >100 µg/mL |
| C/C(=N/NC(N)=S)c1ccc(NC(=O)CN2C(=O)c3ccccc3S2(=O)=O)cc1 | HEL | AD169 | EC50 |  | plaque count | >100 µM |
| Nc1nc(NC2CC2)c2ncn(C=C3CC3CO)c2n1 | HFF | AD169 | EC50 |  |  | 2.4 µM |
| Cc1ccc(/C=N/NC(=O)c2ccccc2S(=O)(=O)NC(C)C)cc1 | HEL | AD169 | EC50 |  | plaque count | >100 µM |
| Nc1cccc2c1C(=O)N(C13CC4CC(CC(C4)C1)C3)C2=O | HEL | AD169 | EC50 |  | plaque count | >0.8 µg/mL |
| Nc1nc2c(ncn2C=C2CC2CO)c(=O)[nH]1 | HFF | TOWNE | EC50 |  |  | 2.1 µM |
| Nc1nc2c(ncn2COC(CO)CO)c(=O)[nH]1 | HFF | DAVIS | EC90 |  | virus yield | 2.4 µM |
| CC(C)Nc1nc2cc(Cl)c(Cl)cc2n1[C@H]1C[C@H](O)[C@@H](CO)O1 | HFF | TOWNE | EC50 |  | plaque count | 24 µM |
| CCCC(C)Nc1ccc(Oc2ccc(O)cc2)cc1 |  | GDGRP53 (ganciclovir-resistant) | EC50 |  | virus yield | 0.15 µM |
| CCOP(=O)(O)CCC(CO)OCn1cnc2c(=O)[nH]c(N)nc21 | MRC-5 | TOWNE | EC50 |  | plaque count | 6 µg/mL |
| CN[C@H]1C[C@@H](n2cnc3c(N)ncnc32)[C@H](O)[C@@H]1O | HFF |  | EC50 |  |  | >100 µg/mL |
| COC(=O)[C@H](C)NP(=O)(OC[C@@H]1C[C@]12C[C@@H]2n1cnc2c(N)ncnc21)Oc1ccccc1 | HFF |  | EC50 |  |  | 0.38 µM |
| CN(C)c1cccc2c(S(=O)(=O)Nc3ccc(NC(=O)C(C)(C)CO)cc3)cccc12 |  | Isolate HE | EC50 |  | plaque count | 0.89 µM |
| COCCOCn1cc(C(N)=S)c2c(N)ncnc21 | MRC-5 | TOWNE | EC50 |  | ELISA | 1.9 µM |
| Nc1nc2c(ncn2COC(CO)CO)c(=O)[nH]1 | MRC-5 | AD169 | EC50 |  | ELISA | 2.7 µM |
| OC[C@H]1O[C@@H](n2c(=S)[nH]c3cc(Cl)c(Cl)cc32)C[C@@H]1O | HFF | TOWNE | EC50 |  | plaque count | >100 µM |
| CN(C)c1ccc(Oc2ccc(NC3CCCCCC3)cc2)cc1 |  |  | EC50 |  | virus yield | 48 µM |
| COC(=O)[C@H](C)NP(=O)(OC[C@H]1C/C1=C/n1cnc2c(N)nc(N)nc21)Oc1ccccc1 | HFF | AD169 | EC50 |  |  | 7.8 µM |
| Nc1nc2c(ncn2C=C2CC2CO)c(=O)[nH]1 | HFF | C9209/1-4-4 | EC50 |  | plaque count | 10.3 µM |
| Nc1nc2c(ncn2COC2COP(=O)(O)OC2)c(=O)[nH]1 | MRC-5 | AD169 | EC50 |  | plaque count | 5.9 µM |
| O=C1c2ccccc2[C@]2(O)C3C4C[C@H]5CC(C[C@H]3C5)C4N12 | HEL | DAVIS | EC50 |  | plaque count | >100 µg/mL |
| Nc1nc2c(ncn2[C@@H]2C[C@H](CO)[C@H]2CO)c(=O)[nH]1 | HFF | Isolate Helebrand (resistant) | EC50 |  | plaque count | 3.36 µM |
| Nc1nc2c(ncn2COC(CO)CO)c(=O)[nH]1 | MRC-5 | C8501 | EC50 |  | plaque count | 1 µM |
| Nc1ccn(C[C@@H](CO)OCP(=O)(O)O)c(=O)n1 | HFF | Isolate Helebrand (resistant) | EC50 |  | plaque count | 0.6 µM |
| COc1ccc(Oc2ccc(NC3CCCCCCC3)cc2)cc1 |  |  | EC50 |  | virus yield | 39.5 µM |
| CNc1cccc2c(S(=O)(=O)Nc3ccc(NC(=O)C(C)(C)CO)cc3)cccc12 | Human embryonic lung fibroblasts | DAVIS | EC50 |  | cytopathic effect | 0.25 µM |
| CC(C)Nc1nc2cc(Cl)c(Cl)cc2n1[C@H]1O[C@@H](CO)[C@H](O)[C@@H]1O | HFF | Isolate Helebrand (wild type) | EC50 |  | plaque count | 0.33 µM |
| Nc1ccn(C=C2C[C@H]2CO)c(=O)n1 | HFF | AD169 | EC50 |  | plaque count | 9.8 µM |
| Nc1nc2c(ncn2COC(CO)CO)c(=O)[nH]1 | HFF | TOWNE | EC50 |  | plaque count | 8.7 µM |
| [N-]=[N+]=Nc1nc2cc(Cl)c(Cl)cc2n1[C@H]1C[C@H](O)[C@@H](CO)O1 | HFF | TOWNE | EC50 |  | plaque count | >100 µM |
| Nc1nc2c(ncn2COC(CO)COP(=O)(O)O)c(=O)[nH]1 | MRC-5 | DAVIS | EC50 |  | plaque count | 6.2 µM |
| COC(=O)[C@H](C)NP(=O)(OC[C@H]1C/C1=C/n1cnc2c(OC)nc(N)nc21)Oc1ccccc1 | HFF | AD169 | EC50 |  |  | 4.5 µM |
| C/C(=N/Nc1nc(-c2ccc(C)cc2)cs1)c1ccc(NC(=O)CN2C(=O)c3ccccc3S2(=O)=O)cc1 | HEL | DAVIS | EC50 |  | plaque count | 20 µM |
| CC[C@@]1(Br)C(=O)NC(=O)N([C@H]2C[C@H](O)[C@@H](CO)O2)[C@H]1OC | HFF | AD169 | EC50 |  | cytopathic effect | 0.28 µM |
| COc1ccccc1C(=O)Nc1ccc(NC(=S)NCCc2cc3ccccc3o2)cc1 | HFF |  | EC50 |  | virus yield | >10 µg/mL |
| CCC(C)Nc1ccc(Oc2ccc(O)cc2)cc1 |  |  | EC50 |  | virus yield | 1 µM |
| C#Cc1cn([C@H]2C[C@H](O)[C@@H](CO)O2)c(=O)[nH]c1=O | VERO |  | EC50 |  | plaque count | 0.07 µM |
| OC[C@H]1O[C@@H](n2c(Cl)nc3cc(Cl)c(Cl)cc32)C[C@@H]1O | HFF | TOWNE | EC90 |  | virus yield | 12 µM |
| CC(C)Nc1nc2cc(Cl)c(Cl)cc2n1[C@H]1O[C@@H](CO)[C@H](O)[C@@H]1O | MRC-5 | C8803 | EC50 |  | hybridisation | 0.13 µM |
| Cc1ccc(C)c(NC(=O)CN2C(=O)c3ccccc3S2(=O)=O)c1 | HEL | AD169 | EC50 |  | plaque count | >100 µM |
| Cn1cc(C(=O)NCc2ccc(Cl)cc2)c(=O)c2cc(CN3CCOCC3)ccc21 | HFF | PFA/R B300 (PFA-resistant) | EC50 |  | plaque count | 4.7 µM |
| Nc1nc2c(ncn2COC(CO)CO)c(=O)[nH]1 | HFF | TOWNE | EC50 |  | plaque count | 0.75 µg/mL |
| CC(C)NS(=O)(=O)c1ccccc1-c1n[nH]c(=S)o1 | HEL | AD169 | EC50 |  | plaque count | >100 µM |
| CC(C)(CO)C(=O)Nc1ccc(NS(=O)(=O)c2cccc3ccccc23)cc1 | Human embryonic lung fibroblasts | DAVIS | EC50 |  | cytopathic effect | 0.66 µM |
| CCC(C)Nc1ccc(Sc2ccc(O)cc2)cc1 |  |  | EC50 |  | virus yield | 30 µM |
| C/C(=N/Nc1nc(-c2ccc(Cl)cc2)cs1)c1ccc(NC(=O)CN2C(=O)c3ccccc3S2(=O)=O)cc1 | HEL | DAVIS | EC50 |  | plaque count | 20 µM |
| Nc1nc2c(ncn2/C=C2/CC2(CO)CO)c(=O)[nH]1 | HFF | VR 4955 (ganciclovir- foscarnet-resistant) | EC50 |  | plaque count | 1.7 µM |
| O=C1c2ccccc2C(=O)N1CCCC12CC3CC(CC(C3)C1)C2 | HEL | DAVIS | EC50 |  | plaque count | ≥4 µg/mL |
| [O-][n+]1onc2ncnc(N3CC[N+]4(CC3)CC[N+]3(CCN(c5ncnc6no[n+]([O-])c56)CC3)CC4)c21 | HELF | Clinical isolate | EC50 | Ganciclovir-sensitive | plaque count | 0.16 µM |
| O=C(Nc1ccccc1NC(=S)NCCOc1cccc(Cl)c1)c1ccccc1F | HFF |  | EC50 |  | virus yield | >0.5 µg/mL |
| O=C(O)P(=O)(O)O | HFF | AD169 | EC50 |  | plaque count | 29 µg/mL |
| O=C(NCc1ccc(Cl)cc1)c1c[nH]c2ccc(C#CCO)cc2c1=O |  | LYS | EC50 |  | plaque count | 1.7 µM |
| Nc1nc2c(ncn2[C@H]2C=C[C@@H](CO)[C@H](O)C2)c(=O)[nH]1 |  | AD169 | EC50 |  |  | 1.5 µg/mL |
| Nc1nc(NC2CC2)c2ncn(C=C3CC3CO)c2n1 | HFF | AD169 | EC50 |  | cytopathic effect | 2 µM |
| CCC(C)Nc1ccc(Oc2cccc(O)c2)cc1 |  |  | EC50 |  | virus yield | 32.5 µM |
| Nc1nc2c(ncn2C=C2CC2CO)c(=O)[nH]1 |  | RCdelta97.19 | EC50 |  | plaque count | 9.6 µM |
| CC(Nc1ccc(Oc2ccc(O)cc2)cc1)C1CC1 |  |  | EC50 |  | virus yield | 5.7 µM |
| O=C(NCc1ccc(Cl)cc1)c1cn2c3c(cc(CN4CCOCC4)cc3c1=O)OC(c1cccnc1)C2 | HFF | C8706/13-1-1 (ganciclovir-resistant) | EC50 |  | plaque count | 1.1 µM |
| Cn1cc(C(=O)NCc2ccc(Cl)cc2)c(=O)c2cc(CN3CCOCC3)ccc21 | HFF | DAVIS | EC50 |  | plaque count | 0.3 µM |
| CN(C)c1cccc2c(S(=O)(=O)Nc3ccc(NC(=O)C(C)(C)CO)cc3)cccc12 |  | 8 strains | EC50 |  | plaque count | 1.17 µM |

A second listing of 6 rows from above:

structure | cells | strain or isolate | read-out | changes | method | result
C/C(=N/Nc1nc(-c2ccc(C)cc2)cs1)c1ccc(NC(=O)CN2C(=O)c3ccccc3S2(=O)=O)cc1 | HEL | DAVIS | EC50 |  | plaque count | 20 µM
Nc1nc2c(ncn2COC(CO)COP(=O)(O)O)c(=O)[nH]1 | MRC-5 | DAVIS | EC50 |  | plaque count | 6.2 µM
COC(=O)[C@H](C)NP(=O)(OC[C@@H]1C[C@]12C[C@@H]2n1cnc2c(N)ncnc21)Oc1ccccc1 | HFF |  | EC50 |  |  | 0.38 µM
CCOP(=O)(O)CCC(CO)OCn1cnc2c(=O)[nH]c(N)nc21 | MRC-5 | TOWNE | EC50 |  | plaque count | 6 µg/mL
Nc1nc2c(ncn2[C@@H]2C[C@H](CO)[C@H]2CO)c(=O)[nH]1 | HFF | Isolate Helebrand (resistant) | EC50 |  | plaque count | 3.36 µM
O=C(NCc1ccc(Cl)cc1)c1cn2c3c(cc(CN4CCOCC4)cc3c1=O)OC(c1cccnc1)C2 | HFF | C8706/13-1-1 (ganciclovir-resistant) | EC50 |  | plaque count | 1.1 µM